Where a chain is given by its changes, count along the chain named. Numbers in names are those of the source.

Sequences and labels used below:
B1: arabinose BP K301C-NBD: arabinose BP K301C (C64A) mutant conjugated to NBD (conjugate, UniProt P02924 24-329, looked up, variant K301C C64A)
L-arabinose-binding …: ENLKLGFLVKQPEEPWFQTEWKFADKAGKDLGFEVIKIAVPDGEKTLNAIDSLAASGAKGFVIATPDPKLGSAIVAKARGYDMKVIAVDDQFVNAKGKPMDTVPLVMMAATKIGERQGQELYKEMQKRGWDVKESAVMAITANELDTARRRTTGSMDALKAAGFPEKQIYQVPTKSNDIPGAFDAANSMLVQHPEVKHWLIVGMNDSTVLGGVRATEGQGFKAADIIGIGINGVDAVSELSKAQATGFYGSLLPSPDVHGYKSSEMLYNWVAKDVEPPKFTEVTDVVLITRDNFKEELEKCGLGGK
modifications: NBD label
B2: arabinose BP L253C-fluorescein: arabinose BP L253C (C64A) mutant conjugated to fluorescein (conjugate, UniProt P02924 24-329, looked up, variant L253C C64A)
L-arabinose-binding …: B1 L-arabinose-binding … with L253C, C301K
modifications: fluorescein conjugate
B3: ribose BP T135C-acrylodan: ribose BP T135C mutant conjugated to acrylodan (conjugate, UniProt P02925 26-296, looked up, variant T135C)
Ribose import binding protein …: KDTIALVVSTLNNPFFVSLKDGAQKEADKLGYNLVVLDSQNNPAKELANVQDLTVRGTKILLINPTDSDAVGNAVKMANQANIPVITLDRQATKGEVVSHIASDNVLGGKIAGDYIAKKAGEGAKVIELQGIAGCSAARERGEGFQQAVAAHKFNVLASQPADFDRIKGLNVMQNLLTAHPDVQAVFAQNDEMALGALRALQTAGKSDVMVVGFDGTPDGEKAVNDGKLAATIAQLPDQIGAKGVETADKVLKGEKVQAKYPVDLKLVVKQ
modifications: acrylodan label
B4: ribose BP A234C-JPW4045: ribose BP A234C mutant conjugated to dye JPW4045 (conjugate, UniProt P02925 26-296, looked up, variant A234C)
Ribose import binding protein …: B3 Ribose import binding protein … with C135T, A234C
modifications: JPW4045 dye conjugate
B5: Glu/Asp BP G211C Fluorescein (conjugate, UniProt P37902 23-302, looked up, variant G211C)
Glutamate/aspartate import …: DDAAPAAGSTLDKIAKNGVIVVGHRESSVPFSYYDNQQKVVGYSQDYSNAIVEAVKKKLNKPDLQVKLIPITSQNRIPLLQNGTFDFECGSTTNNVERQKQAAFSDTIFVVGTRLLTKKGGDIKDFANLKDKAVVVTSGTTSEVLLNKLNEEQKMNMRIISAKDHGDSFRTLESGRAVAFMMDDALLACERAKAKKPDNWEIVGKPQSQEAYGCMLRKDDPQFKKLMDDTIAQVQTSGEAEKWFDKWFKNPIPPKNLNMNFELSDEMKALFKEPNDKALN
modifications: fluorescein label
B6: Glu/Asp BP G211C NBD (conjugate, UniProt P37902 23-302, looked up, variant G211C)
Glutamate/aspartate import …: B5 Glutamate/aspartate import …
modifications: NBD dye conjugate
B7: Glu/Asp BP Q123C JPW4045 (conjugate, UniProt P37902 23-302, looked up, variant Q123C)
Glutamate/aspartate import …: B5 Glutamate/aspartate import … with Q101C, C189G
modifications: JPW4045 dye conjugate
B8: Glu/Asp BP Q123C JPW4039 (conjugate, UniProt P37902 23-302, looked up, variant Q123C)
Glutamate/aspartate import …: B5 Glutamate/aspartate import … with Q101C, C189G
modifications: JPW4039 dye conjugate

The first data set can be described thus: Fluorescence emission spectra without and with saturating ligand (wavelength shift, ΔIstd, ΔRmax). The note with it: apo vs saturating ligand, optimal pair of emission bands. The method, then:
Fluorimetry. All measurements were conducted with an SLM Aminco-Bowman series 2 fluorimeter, with sample stirring at 25° C. Fluorescence emission spectra were acquired with excitation and emission slit widths of 4 and 8 nm, respectively. Photomultiplier tube potential was maintained between 400 and 800 volts. Protein concentrations were in the range of 50 to 1000 nM. Fluorophore-specific excitation was at the following approximate wavelengths: tryptophan, 290 nm; acrylodan, 390 nm; fluorescein, 485 nm; pyrene, 340 nm; NBD and NBDE, 490 nm; JPW4039, 485 nm; JPW4042, 470 nm; JPW4045, 470 nm.
Assessment of fluorescent biosensor function. Fluorescence emission spectra of bPBP-fluorophore conjugates were recorded in the absence and presence of saturating ligand concentrations. Spectral changes were characterized by four parameters: wavelength shift (the difference between the wavelengths of emission maximum in the unbound and ligand-saturated states), direction of intensity change (increase or decrease in intensity at the wavelengths of maximum emission in the two states), standard intensity change (ΔIstd), and standard ratiometric change (ΔR). ΔIstd is defined as the normalized intensity change relative to the average intensity, determined at the wavelength mid-point between the two emission maxima:
[formula] where λstd=(λmax, unbound+λmax, saturated)/2 and I1, I2 are the fluorescence intensities at λstd of each spectrum respectively (FIG. 4A). ΔR is defined in terms of two emission bands, A1 ([λ1, λ2]) and A2 ([λ3, λ4]) (FIG. 4B):
[formula] where ^∘A1, […] the areas in the absence of ligand, and ^∞A1, ^∞A2 the areas in the presence of saturating ligand. A computer program was used to enumerate ΔR for all possible pairs of wavelength bands in the two spectra, to identify the optimal sensing condition, defined as the maximum value of ΔR. Adjustable parameters of the algorithm, and their values used for ΔRmax quantities reported here, are: step size (2 nm), step width (10 nm), minimum integration area limit (fraction of total: 0.1), and maximum integration area limit (fraction of total: 1).
On to B1, for which the “ΔRmax (maximum standard ratiometric change)” value was found to be 3.2.

For B2, the “ΔRmax (maximum standard ratiometric change)” value is recorded as 2.7.

For B3, the “ΔRmax (maximum standard ratiometric change)” value is listed as 6.3.

On to B4, for which the “ΔRmax (maximum standard ratiometric change)” value is recorded as 4.1.

Still in this data set, the particulars now being: emission maximum, absence of ligand.
Regarding B5, the “λmax,apo (nm)” value was found to be 522.

With B6, the “λmax,apo (nm)” value is listed as 538.

In the case of B7, the “λmax,apo (nm)” value is recorded as 640.

Regarding B8, the “λmax,apo (nm)” value is 592.

Still in this data set, the particulars now being: emission maximum, saturating ligand (ligand column).
In the case of B5, the “λmax,sat (nm)” value is 521.

B6: the “λmax,sat (nm)” value amounted to 538.

Consider B7, for which the “λmax,sat (nm)” value is listed as 641.

With B8, the “λmax,sat (nm)” value is reported as 588.

Still in this data set, the particulars now being: standard intensity change, unbound vs ligand-saturated.
With B5, the ΔIstd is on record as 0.03.

On to B6, for which the ΔIstd is reported as 0.07.

As to B7, the ΔIstd was 0.00.

Take B8: the ΔIstd is 0.05.

Staying with this data set, now noted: standard ratiometric change, unbound vs ligand-saturated.
Take B5: the ΔRmax is 0.18.

B6: the ΔRmax is on record as 0.32.

For the molecule B7, the ΔRmax is reported as 0.88.

Consider B8, for which the ΔRmax stood at 0.75.

Source of the values: patent publication US9625458B2, “Biosensor” (priority 2002, dated 2017).
